Data on one sequence can be found in patent publication US5929226A, “Antisense oligonucleotide alkylphosphonothioates and arylphospohonothioates” (dated 1999).

The subject of this assay is HIV-1. Nature of the assay: Anti-HIV activity in tissue culture: syncytium formation and cytopathic effect in HIV-1 infected H9 lymphocytes. The note with it: three days.

For ACACCCAATTCTGAAAATGG, the ED50 was 2.45 µg/mL. Also, under “0.32 μg/ml”, the “% Reduct. in CPE” value is on record as 2% and the “Avg. No. of Syncytia” value is 150. Where the note is “1.0 μg/ml”, the “% Reduct. in CPE” value amounted to 0% and the “Avg. No. of Syncytia” value came to 156. For the same sequence, where the note is “3.2 μg/ml”, the “% Reduct. in CPE” value is listed as 65% and the “Avg. No. of Syncytia” value is listed as 53. Besides, under “10 μg/ml”, the “% Reduct. in CPE” value turned out to be 100% and the “Avg. No. of Syncytia” value came out at 0. In addition, for the setting “32 μg/ml”, the “% Reduct. in CPE” value was found to be 100% and the “Avg. No. of Syncytia” value amounted to 0. Besides, where the note is “100 μg/ml”, the “% Reduct. in CPE” value stood at 100% and the “Avg. No. of Syncytia” value is recorded as 0.
